Pooled drug test results. Numbers come from NIAID ChemDB, via PubChem.

Shared fields: host cell toxicity; read-out: CC50

An empty or dashed field is not shown. CCn: concentration that lowers growth or viability of the cells by n%. Lines come from different laboratories, so protocols vary.

| structure | cells | method | result |
|---|---|---|---|
| N#CC(c1ccc(F)cc1)S(=O)c1cccc[n+]1[O-] | HEL |  | 0.28 µg/mL |
| CCCCCSc1nc(N)nc2c1ncn2/C=C1/C[C@@H]1CO | BSCL-1 |  | >156 µM |
| COCC(c1cc(C)ccc1C)S(=O)(=O)c1ccccn1 | HEL |  | ≥100 µg/mL |
| CS(=O)(=O)C1(c2nsc(C(=O)NC34CC(c5nc(-c6ccc(F)cc6)no5)(C3)C4)n2)CC1 | Primary human hepatocytes | absorbance | 79.8 µM |
| Nc1ccn([C@@H]2CS[C@H](CO)O2)c(=O)n1 | MAGI | MTT | >100 µg/mL |
| COc1cnc(OC)c(C2(O)C(N)=Nc3ccc(Cl)cc32)c1 | Erythrocyte |  | >125 µM |
| COC(=O)[C@H](C)NP(=O)(OC[C@H]1C/C1=C/n1cnc2c(OC)nc(N)nc21)Oc1ccccc1 | MEF | neutral red | 126 µM |
| CCOC(=O)CCCCCOc1cccc(CN(C(=O)c2ccc(-c3cccc(NC=O)c3)cc2)C(C)C)c1 | RAJI |  | >20 µM |
| CS(=O)(=O)C1(c2ccc(C(=O)NC34CC(c5nnn(-c6ccc(Cl)cc6)n5)(C3)C4)o2)CC1 | Primary human hepatocytes | absorbance | 12.2 µM |
| CC(C)(CF)C(=O)Nc1cccc(NS(=O)(=O)c2ccc(-c3noc(-c4ccccc4)n3)cc2)c1 | HELF |  | <8 µM |
| CSCO[C@]1(C)COC(C)(CC(=O)OC[C@@H]2C=C[C@H](n3cnc4c(N)ncnc43)O2)C1 | JM |  | 100 µM |
| Nc1nc(-c2ccc(NC(=O)NCc3ccccc3)cc2)cs1 | HS68 |  | <45 µM |
| Cc1cc(C)n2nc(S(=O)(=O)Nc3c(Cl)ccc(C)c3Cl)nc2n1 | K562 (CRL-1573) | WST | >128 µg/mL |
| CCCc1cc(=O)[nH]c(SC(C)C(=O)Nc2ccccc2C)n1 | MT-2 human T-cells | MTT | >100 µM |
| O=[N+]([O-])c1cc(CS(=O)(=O)c2cccc[n+]2[O-])cc([N+](=O)[O-])c1 | HEL |  | 4.4 µg/mL |
| CC(N=[N+]=[N-])c1cn([C@H]2C[C@H](O)[C@@H](CO)O2)c(=O)[nH]c1=O | HFF |  | >125 µM |
| O=S(=O)(Cc1ccc(-c2ccccc2)cc1)c1cccc[n+]1[O-] | HEL |  | 4.6 µg/mL |
| COC1=NC=C[C@@H]2O[C@@H]3SC(OC)=NC=C[C@@H]3O[C@@H]2S1 | McCoy | sulforhodamine | >100 µg/mL |
| C=CCOc1nc(N)nc2c1ncn2/C=C1/C[C@@H]1CO | BSCL-1 |  | 118 µM |
| CS(=O)(=O)C1(c2ccc(C(=O)NC34CC(c5ncc(-c6ccc(Cl)c(Cl)c6)s5)(C3)C4)o2)CC1 | Primary human hepatocytes | absorbance | 29.86 µM |
| O=[N+]([O-])c1ccc(O)c(CSc2cccc[n+]2[O-])c1 | HEL |  | >20 µg/mL |
| CC(C)N(Cc1cccc(OCCCCCC(=O)OC(=O)O)c1)C(=O)c1ccc(-c2c[nH]c3ccccc23)cc1 | RAJI |  | >20 µM |
| O=C(NCCc1ccccc1)C1=Cc2ccncc2CC1 | MA-104 |  | 148 µM |
| O=c1[nH]c(=O)n([C@@H]2O[C@H](CO)[C@@H](O)[C@@H]2F)cc1/C=C/Br | Human lymphoblasts |  | 100 µM |
| CCn1c(-c2ccccc2)c(C)c(=O)c2cc(NCC(C)C)ccc21 | HeLa S3 | MTT | >5 µg/mL |
| Nc1nc(-c2ccc(NC(=O)CCN(Cc3ccccc3)C(=O)C3CCCCC3)cc2)cs1 | HS68 |  | <13 µM |
| CS(=O)(=O)C1(c2nsc(C(=O)NC34CC(c5noc(-c6ccc(Cl)cc6)n5)(C3)C4)n2)CC1 | Primary human hepatocytes | absorbance | 65.54 µM |
| CC(N)c1cn([C@H]2C[C@H](O)[C@@H](CO)O2)c(=O)[nH]c1=O | HFF |  | 330 µM |
| COC(=O)c1ccc(OCc2cnc(CS(=O)c3nc4ccccc4[nH]3)c(C)c2)c(OC)c1 | HEK293T | MTT | 37.5 µM |
| C=CCCC1=NCC(O[Si](C)(C)C(C)(C)C)c2cc(OC)c(OC)cc21 | BJ |  | <7.5 µM |
| CC(C)Oc1ccccc1CNC(=O)c1ccc2cnccc2n1 | MA-104 |  | >12 µM |
| Nc1nc(-c2ccc(NC(=O)CN(CC3CCCCC3)C(=O)C3CCCC3)cc2)cs1 | HS68 |  | >21 µM |
| COc1cnc(CS(=O)c2nc3ccccc3[nH]2)c(C)c1-n1cccc1 | HEK293T | MTT | 42 µM |
| Oc1cccc(Nc2ncnc3sc(-c4ccccc4)cc23)c1 | MT-2 human T-cells | MTT | 14 µM |
| Nc1nc(NC2CC2)c2ncn(/C=C3/C[C@@H]3CO)c2n1 | MEF |  | >36.7 µM |
| Nc1nc(Cl)c2ncn(/C=C3/C[C@H]3CO)c2n1 | MEF | neutral red | 260 µM |
| COc1ccc(C[C@H](N)C(=O)N[C@H]2[C@@H](O)[C@H](n3cnc4c(N(C)C)ncnc43)O[C@@H]2CO)cc1 | K562 (CRL-1573) | WST | 0.39 µg/mL |
| Cc1ccc(C)c(C(CC(=O)O)S(=O)(=O)c2cccc[n+]2[O-])c1 | HEL |  | >50 µg/mL |
| CS(=N)(=O)c1ccc(C(=O)NC23CC(c4nc5ccc(Cl)cc5o4)(C2)C3)o1 | Primary human hepatocytes | absorbance | >100 µg/mL |
| CS(=O)(=O)C1(c2ncc(C(=O)NC34CC(c5nc(-c6ccc(Cl)cc6)cs5)(C3)C4)o2)CC1 | Primary human hepatocytes | absorbance | 81.63 µM |
| N[C@@H](CCC(=O)O)C(=O)O[C@@H]1C=C(C(=O)O)[C@@H]2[C@H](C1)C(CO)=C[C@@H]2O | L6 rat skeletal myoblasts | resazurin | 60.4 µg/mL |
| CN(CC(=O)Nc1ccc(-c2csc(N)n2)cc1)C(=O)c1ccncc1 | HS68 |  | >110 µM |
| CCc1cccc(C)c1NS(=O)(=O)c1nc2nc(C)cc(C3CC3)n2n1 | HEPG2 (HB-8065) | WST | >128 µg/mL |
| N#Cc1c(SCc2ccc(Cl)cc2)sc2c(O)cc(=O)[nH]c12 | MT-2 human T-cells | MTT | >100 µM |
| Cc1cn([C@H]2C=C[C@@H](COC(=O)CC3(C)C[C@](C)(O)CO3)O2)c(=O)[nH]c1=O | JM |  | >500 µM |
| COc1c(C)c(C)c2[nH]c3ccccc3c2c1O | NCI-H187 | resazurin | 4.2 µg/mL |
| COC(=O)c1c(Nc2ccc(-c3ccc(N)cc3)cc2)c2cccnc2n(O)c1=O | HOS | ATP / luminescence | 250 µM |
| COc1cnc(CS(=O)c2nc3ccc(C)cc3[nH]2)c(C)c1OC | HEK293T | MTT | 75 µM |
| CC(C)(C)OC(=O)N(CCC(=O)Nc1ccc(-c2csc(N)n2)cc1)C1CCc2ccccc21 | HS68 |  | <9 µM |
| Cc1cc(OCCCOc2ccc(-c3cccc(C(=O)O)c3)cc2)cnc1CS(=O)c1nc2ccccc2[nH]1 | HEK293T | MTT | >100 µM |
| O=c1[nH]c(=O)n([C@@H]2O[C@H](CO)[C@@H](O)[C@@H]2F)cc1/C=C/I | Human lymphoblasts |  | 100 µM |
| COc1ccc2[nH]c3c(C)c(C)c(OC)c(OC)c3c2c1 | NCI-H187 | resazurin | 12.9 µg/mL |
| C/C(=N\N=C(N)N)c1cc(NC(=O)CCCCCCCCC(=O)Nc2cc(/C(C)=N/N=C(N)N)cc(/C(C)=N/N=C(N)N)c2)cc(/C(C)=N/N=C(N)N)c1 | PM1 | MTT | >2 µM |
| CC(C)Oc1ccccc1C1(O)C(N)=Nc2ccc(Cl)cc21 | Erythrocyte |  | >120 µM |
| COc1ccc2[nH]c3c(C)c(C)c(OC)c(O)c3c2c1 | NCI-H187 | resazurin | 8.2 µg/mL |
| Cc1cc(COc2ccc(-c3cccc(C#N)c3)cc2)cnc1CS(=O)c1nc2ccccc2[nH]1 | HEK293T | MTT | 6 µM |
| CCCCCOc1nc(N)nc2c1ncn2/C=C1/C[C@@H]1CO | BSCL-1 |  | 109 µM |
| CCn1c(-c2ccccc2)c(C)c(=O)c2cc(C(C)C)ccc21 | HELA-OHIO | MTT | 11 µg/mL |
| NC1=Nc2ccc(Cl)cc2C1(O)c1ccccc1 | Erythrocyte |  | >155 µM |
| CCCSc1nc(N)nc2c1ncn2/C=C1/C[C@@H]1CO | BSCL-1 |  | 148 µM |
| CC(C)c1ccc(CS(=O)(=O)c2cccc[n+]2[O-])cc1 | CEM | cell count | 9.4 µg/mL |
| Nc1nc(-c2ccc(C(=O)N(Cc3ccccc3)Cc3ccccc3)cc2)cs1 | HS68 |  | <32 µM |
| Cc1ccc2c(c1)C(O)(c1ccccc1)C(N)=N2 | Erythrocyte |  | >168 µM |
| O=C(Nc1cc(C(F)(F)F)ccc1N1CCCCC1)c1ccncc1 | Huh7/Rep-Feo-2a | MTS | >30 µM |
| CCOc1ccc(-c2nc3ccc(-c4ccc5nc(-c6ccc(OCC)cc6)[nH]c5c4)cc3[nH]2)cc1 | WI38 human lung fibroblasts | sulforhodamine | 0.53 µg/mL |
| Nc1nc2ncn(/C=C3/C(F)C3(CO)CO)c2c(=O)[nH]1 | Akata |  | >100 µM |
| C=Cc1cn([C@@H]2O[C@H](CO)[C@@H](O)[C@@H]2F)c(=O)[nH]c1=O | Human lymphoblasts |  | 100 µM |
| CCOC(=O)c1sc(-c2ccccc2)nc1N1CCC(NCc2ccc(F)cc2)CC1 | RAW 264.7 | MTT | 6.23 µM |
| Cc1cc(OCc2ccc(-c3cccc(C#N)c3)cc2)cnc1CS(=O)c1nc2ccccc2[nH]1 | HEK293T | MTT | 5 µM |
| CCn1c(-c2ccccc2)c(C)c(=O)c2cc(OCC(C)C)ccc21 | HeLa S3 | MTT | >4 µg/mL |
| Nc1nc(N)c2ncn(C=C3CC3CO)c2n1 | MEF | neutral red | >293 µM |
| CC(C)N(Cc1cccc(OCCCCCC(=O)OC(=O)O)c1)C(=O)c1ccc(-c2cccc(-c3ccccc3)c2)cc1 | RAJI |  | >20 µM |
| C[C@@H](c1ccccc1)N(CC(=O)Nc1ccc(-c2csc(N)n2)cc1)C(=O)c1ccncc1 | BHK-21/C13 |  | 59 µM |
| O=C(N[C@@H](C(=O)N1CCC[C@H]1C(=O)Nc1nc(-c2ccccc2)cs1)c1ccccc1)C1CC1 | Huh7.7 | MTT | >50 µM |
| CCOc1ccc(-c2cc(=O)c3cc(C(C)C)ccc3n2C)cc1C | HeLa S3 | MTT | >5.8 µg/mL |
| COc1ccccc1CNC(=O)C1=Cc2ccncc2CC1 | MA-104 |  | <282 µM |
| CC(C)(C)OC(=O)NCC(OC(=O)C(O)CO)c1ccc2c(c1)OCO2 | RAJI |  | <7.5 µM |
| COc1nc(N)nc2c1ncn2C=C1CC1CO | MEF | neutral red | 260 µM |
| Cc1ncc(-c2c[nH]c3ccccc23)o1 | NCI-H187 | resazurin | >50 µg/mL |
| [N-]=[N+]=NC(CI)c1cn([C@H]2C[C@H](O)[C@@H](CO)O2)c(=O)[nH]c1=O | HFF |  | >118 µM |
| Nc1ccc(-c2ccc(Nc3cc(=O)n(O)c4ncccc34)cc2)cc1 | HOS | ATP / luminescence | 2.44 µM |
| Nc1nc(-c2ccc(NC(=O)NCCc3ccccn3)cc2)cs1 | HS68 |  | <93 µM |
| C=C(C)[C@@H]1CCC2(C(=O)OC)CC[C@]3(C)C(CCC4[C@@](C)(CC#N)C(C(C)(C)C(=O)Nc5nccs5)CC[C@]43C)C12 | MS | MTT | 85.2 µM |
| Cc1c(-c2ccccc2)n(-c2ccccc2F)c2ccc(C(C)C)cc2c1=O | HELA-OHIO | MTT | >1 µg/mL |
| Cc1cc(C2CC2)n2nc(S(=O)(=O)Nc3c(C)ccc(Cl)c3C)nc2n1 | K562 (CRL-1573) | WST | 77 µg/mL |
| Cc1c(-c2ccccc2)n(C)c2cc(C(C)C)c(OC(C)C)cc2c1=O | HeLa S3 | MTT | >5 µg/mL |
| O=c1nc(Nc2ccc(-c3cnc4ccccc4c3)cc2)c2cccnc2n1O | PM1 |  | 2.1 µM |
| O[C@H](c1cc(C(F)(F)F)nc2c(C(F)(F)F)cccc12)[C@H]1CCCCN1 | HepG2-A16 | MTT | 25.6 µM |
| CC(C)N(Cc1cccc(OCCCCCC(=O)OC(=O)O)c1)C(=O)c1ccc(-c2cccc([N+](=O)[O-])c2)cc1 | BJ |  | >20 µM |
| CCn1c(-c2ccccc2)c(C)c(=O)c2c(Cl)c(OCC(C)C)ccc21 | HeLa S3 | MTT | >4 µg/mL |

11 of the rows above, restated:

| structure | cells | method | result |
|---|---|---|---|
| COc1c(C)c(C)c2[nH]c3ccccc3c2c1O | NCI-H187 | resazurin | 4.2 µg/mL |
| COC1=NC=C[C@@H]2O[C@@H]3SC(OC)=NC=C[C@@H]3O[C@@H]2S1 | McCoy | sulforhodamine | >100 µg/mL |
| CC(C)(C)OC(=O)N(CCC(=O)Nc1ccc(-c2csc(N)n2)cc1)C1CCc2ccccc21 | HS68 |  | <9 µM |
| CCOc1ccc(-c2nc3ccc(-c4ccc5nc(-c6ccc(OCC)cc6)[nH]c5c4)cc3[nH]2)cc1 | WI38 human lung fibroblasts | sulforhodamine | 0.53 µg/mL |
| O=C(NCCc1ccccc1)C1=Cc2ccncc2CC1 | MA-104 |  | 148 µM |
| Nc1nc2ncn(/C=C3/C(F)C3(CO)CO)c2c(=O)[nH]1 | Akata |  | >100 µM |
| CS(=N)(=O)c1ccc(C(=O)NC23CC(c4nc5ccc(Cl)cc5o4)(C2)C3)o1 | Primary human hepatocytes | absorbance | >100 µg/mL |
| N[C@@H](CCC(=O)O)C(=O)O[C@@H]1C=C(C(=O)O)[C@@H]2[C@H](C1)C(CO)=C[C@@H]2O | L6 rat skeletal myoblasts | resazurin | 60.4 µg/mL |
| O=S(=O)(Cc1ccc(-c2ccccc2)cc1)c1cccc[n+]1[O-] | HEL |  | 4.6 µg/mL |
| CC(C)N(Cc1cccc(OCCCCCC(=O)OC(=O)O)c1)C(=O)c1ccc(-c2cccc(-c3ccccc3)c2)cc1 | RAJI |  | >20 µM |
| O=[N+]([O-])c1cc(CS(=O)(=O)c2cccc[n+]2[O-])cc([N+](=O)[O-])c1 | HEL |  | 4.4 µg/mL |